Source: PubChem BioAssay AID624099 (ICCB-Longwood, 2012)
Purpose: 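Host factors E2 relies on to silence an HPV18 LCR reporter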 (primary screen). Cells: human C33A cervical carcinoma cells (HPV-negative) stably expressing BPV1 E2 and an HPV18 LCR luciferase reporter. Reagents: siRNA pool against human genes, 40 nM. Time to read-out: 72 h. Measurement: 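HPV18 LCR reporter light per well, converted to plate-wise z-scores that exclude control wells, and averaged over triplicate plates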. Direction: mean z-score and z-score: higher = stronger reporter signal, weaker E2 silencing. Hit rule: 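Hit if mean z-score reaches 2 and two or more of three replicate z-scores also reach 2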.
The whole screen tested about 21,000 reagents; this is a random part of them. 497 of them (2.4%) count as active. 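Higher z means weaker E2 silencing; only reporter increases were scored, and knock-downs that hurt cell survival may mask genuine repressor factors.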 Reagents against one gene are numbered here. Reagent sequences are not shown.

target gene,reagent no.,mean z-score,"z-score, replicate A","z-score, replicate B","z-score, replicate C",activity call
PRRT2,1,0.06,0.1,-0.55,0.64,inactive
SNX22,1,-0.03,0.23,-0.22,-0.09,inactive
NODAL,1,-1.26,-1.25,-1.21,-1.32,inactive
TRIM34,1,0.03,0.22,0.01,-0.13,inactive
MYF5,1,0.83,0.84,0.86,0.77,inactive
KATNA1,1,0.3,0.41,0.23,0.27,inactive
PHF19,1,-0.68,-0.73,-0.8,-0.51,inactive
ZNF844,1,-0.27,-0.19,-0.21,-0.43,inactive
SPIRE1,1,1.24,1.04,1.29,1.4,inactive
PSMD8,1,-2.42,-2.39,-2.3,-2.57,inactive
MGAT5B,1,-1.48,-1.08,-2.06,-1.29,inactive
GFRA2,1,-1.32,-1.53,-1.21,-1.21,inactive
SDHAF4,1,2.67,2.75,2.45,2.81,active
BLOC1S1,1,-1.08,-0.97,-1.15,-1.11,inactive
OR4F15,1,-1.16,-0.68,-1.23,-1.55,inactive
POU2F3,1,0.17,0.09,0.22,0.2,inactive
RBM17,1,0.53,0.12,0.78,0.69,inactive
DONSON,1,-1.89,-1.5,-2.21,-1.96,inactive
COQ7,1,0.81,0.89,0.64,0.89,inactive
MLYCD,1,0.57,0.19,0.78,0.75,inactive
BTBD16,1,-0.46,-0.11,-0.95,-0.33,inactive
LOC389248 (retired record),1,0,-0.17,0.01,0.16,inactive
FLJ44796 (retired record),1,-1.05,-1.48,-0.77,-0.89,inactive
SCAI,1,0.47,0.64,0.33,0.43,inactive
HDAC9,1,-0.14,0.11,-0.25,-0.29,inactive
HOXA1,1,-0.14,-0.42,0.07,-0.09,inactive
SPTBN1,1,0.37,0.79,0.04,0.28,inactive
HECTD1,1,2.07,2.05,2.04,2.12,active
GPBAR1,1,0.45,0.28,0.6,0.48,inactive
PTPRF,1,-0.49,-0.49,-0.55,-0.44,inactive
CENPP,1,0.23,0.58,0.04,0.07,inactive
P2RY8,1,-0.49,-0.22,-0.73,-0.51,inactive
WDR20,1,-0.17,-0.1,0.26,-0.65,inactive
ST8SIA5,1,0.63,0.82,0.54,0.54,inactive
RNF138,1,-0.94,-0.47,-1.27,-1.08,inactive
FAM184A,1,0.32,0.6,0.42,-0.07,inactive
NEK5,1,0.49,0.28,0.52,0.66,inactive
ZNF66,1,0.91,1.22,0.63,0.89,inactive
PLPPR5,1,-0.57,-0.26,-0.9,-0.55,inactive
PAX2,1,1,1.07,1.04,0.89,inactive
GALR2,1,-0.02,0.04,-0.06,-0.02,inactive
MYO1G,1,-0.19,-0.44,-0.57,0.43,inactive
RAD9B,1,0.49,0.38,0.6,0.49,inactive
DCLK3,1,0.72,0.75,0.57,0.83,inactive
LOC400452 (retired record),1,0.77,0.58,0.76,0.97,inactive
NADK2,1,-0.42,-0.08,-0.48,-0.7,inactive
FLNA,1,0.12,0.17,0.14,0.06,inactive
COG3,1,-0.53,-0.26,-0.6,-0.73,inactive
VARS2,1,-1.61,-1.64,-1.52,-1.68,inactive
ERCC6L,1,-1.32,-1.3,-1.54,-1.13,inactive
IL33,1,0.76,1.13,0.66,0.49,inactive
GH2,1,-0.52,-0.59,-0.71,-0.25,inactive
ZDHHC17,1,0.66,0.28,0.95,0.74,inactive
KLHL7,1,-0.89,-0.62,-1.06,-0.98,inactive
CERT1,1,-0.39,-0.19,-0.39,-0.59,inactive
VSTM4,1,1.13,1.22,1.26,0.92,inactive
LGI2,1,1.82,1.67,2.3,1.49,inactive
ORC6,1,1.14,1.38,1.09,0.95,inactive
LOC401915 (retired record),1,0.39,0.35,0.63,0.18,inactive
DRG1,1,1.38,1.51,1.35,1.27,inactive
LOC132969 (retired record),1,0.5,0.48,0.41,0.62,inactive
CEBPE,1,-0.89,-0.88,-0.87,-0.91,inactive
SCFD1,1,0.16,0.05,0.14,0.29,inactive
ARHGAP42,1,1.49,1.54,1.47,1.45,inactive
ARHGAP42,2,0.57,0.45,0.35,0.91,inactive
LOC388491 (retired record),1,-0.28,-0.29,-0.21,-0.35,inactive
OR4P4,1,0.3,-0.03,0.71,0.23,inactive
MPP2,1,0.43,0.25,0.28,0.77,inactive
MARF1,1,-0.34,-0.2,-0.46,-0.35,inactive
RPS12P4,1,0.51,0.4,0.77,0.34,inactive
OR2G6,1,-1.46,-1.69,-1.49,-1.18,inactive
HAPSTR2,1,-0.17,-0.61,0.02,0.09,inactive
EIF4H,1,0.96,1.51,0.74,0.62,inactive

Entries above whose target name starts with D or d:
target gene,reagent no.,mean z-score,"z-score, replicate A","z-score, replicate B","z-score, replicate C",activity call
DONSON,1,-1.89,-1.5,-2.21,-1.96,inactive
DCLK3,1,0.72,0.75,0.57,0.83,inactive
DRG1,1,1.38,1.51,1.35,1.27,inactive
